Only a part is listed here, and it is no random draw. The source made the active and inactive calls. Calls come from the whole dose curve.
molecular target: Beta-lactamase (Escherichia coli (strain K12)) (UniProt P00811); assay: Promiscuous and Specific Inhibitors of AmpC Beta-Lactamase (assay without detergent); details: AmpC nitrocefin hydrolysis, absorbance 480 nm, no detergent; at 28.7 µM unless noted; note: % of control where 0% means no effect
Method: NIH Molecular Libraries Screening Centers Network [MLSCN]
NIH Chemical Genomics Center [NCGC]
PI Name: Shoichet, Brian K.
This aggregation profiling approach exploits the sensitivity of aggregate formation to detergent. Inhibition of b-lactamase is measured in the presence and absence of 0.01% Triton X-100. See Pubchem assay "Promiscuous and Specific Inhibitors of AmpC Beta-Lactamase (assay with detergent)" for related screen. Compounds that inhibit only in the absence of detergent are considered likely promiscuous aggregators.
A screen of 1,030 compounds was performed in Brian Shoichet's lab in 96-well format. AmpC activity was measured by following the absorbance at 480 nm. Nitrocefin is a chromogenic substrate: while nitrocefin is yellow (lmax 390 nm), the product of its hydrolysis is red (lmax 486 nm, 17,000 M-1). AmpC beta lactamase was provided by Brian Shoichet and Brian Feng, UCSF.
NCGC Assay Protocol Summary:
20 mM phosphate buffer, pH 7.0
Triton X-100: No Detergent screen: 0.0001%, Detergent screen: 0.01%.
Buffer in columns 3 and 4 as negative control (no enzyme).
5.3 nM AmpC in columns 1, 2, 5-48. Titration of UCSF compound 9 control (from 10 mM, then 1:2) pin-transferred to column 2. Column 1 is neutral (100% activity).
Six uL of reagents were dispensed to 1536-well Greiner black clear bottom plates. Compounds and controls (23 nL) were transferred via Kalypsys PinTool. The plates were incubated for 15 min at room temperature, and then 2 uL of 800 uM solution of nitrocefin was added to start the reaction. The plates were immediately transferred to and read every 20 seconds for 4 min on ViewLux (Perkin-Elmer) High-throughput CCD imager using 480 nm absorbance protocol. During dispense, reagent bottles were kept submerged into 4 deg C water bath.
Keywords: NIH Roadmap, MLSCN, MLI, MLSMR, qHTS, NCGC, AmpC Beta-Lactamase, Aggregation.

The chains behind the UniProt entries cited, without tags or fusion partners.
UniProt P00811, whole entry: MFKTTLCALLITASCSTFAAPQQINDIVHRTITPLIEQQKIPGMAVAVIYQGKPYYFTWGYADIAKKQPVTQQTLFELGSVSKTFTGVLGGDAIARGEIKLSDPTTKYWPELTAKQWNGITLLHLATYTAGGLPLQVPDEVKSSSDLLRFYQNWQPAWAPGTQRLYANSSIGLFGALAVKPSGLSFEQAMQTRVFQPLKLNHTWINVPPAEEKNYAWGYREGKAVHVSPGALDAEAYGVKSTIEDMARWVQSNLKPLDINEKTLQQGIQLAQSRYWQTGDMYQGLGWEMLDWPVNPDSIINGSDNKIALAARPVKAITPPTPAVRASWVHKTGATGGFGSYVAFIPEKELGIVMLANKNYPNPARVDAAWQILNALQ

Q: Which activity change, negative = inhibition does the source give for `Fc1ccccc1NC1CCN(Cc2ccccc2)CC1` here?
A: inactive: -11.9%

Q: How did the activity change, negative = inhibition turn out when `CCC(CO)(C(=O)OC1CN2CCC1CC2)c1ccccc1` (stereo not given) was run?
A: inactive: -12.4%

Q: `CCOc1ncccc1C(=O)NCC1(N2CCOCC2)CCCCC1` was tested. Which activity change, negative = inhibition did it give?
A: inactive: 30.5%

Q: With `O=C(O)C1(Nc2ccccc2)CCN(Cc2ccccc2)CC1` as the molecule, how does the activity change, negative = inhibition read?
A: inactive: -5.3% [at 5.75 µM]

Q: Which activity change, negative = inhibition does the source give for `N/C(=N\O)c1c(N)no[n+]1[O-]` here?
A: inactive: 7.8%

Q: How did the activity change, negative = inhibition turn out when `ClCCOP(OCCCl)OCCCl` was run?
A: inactive: -3.8%

Q: How did the activity change, negative = inhibition turn out when `N#CC1(Nc2ccccc2)CCN(CCc2ccccc2)CC1` was run?
A: inactive: 19.8%

Q: Which activity change, negative = inhibition does the source give for `NC1CCCCC1.NP(=O)(O)N(CCCl)CCCl` here?
A: inactive: -1.7% [at 5.75 µM]

Q: For `CCOP(=O)(Cl)Cl`, which activity change, negative = inhibition is on record?
A: inactive: -7.8%

Q: `O=C(OC1CN2CCC1CC2)C1c2ccccc2Oc2ccccc21` (stereo not given) was tested. Which activity change, negative = inhibition did it give?
A: inactive: 29.7%

From PubChem BioAssay AID585 (National Center for Advancing Translational Sciences (NCATS), 2007)
